# Tested on: enveloped virus
# Test: Inhibition of enveloped virus infectivity by shortened form
substance,measurement,value
NKLRRIIRKIIHIIKKYG-NH2 [OV-2.3],viral replication inhibition (qualitative),Significant levels of viral replication inhibition were detected

# Reference: patent publication US20040086535A1, “Novel antiviral acitivities of primate theta defensins and mammalian cathelicidins” (priority 2001, published 2004)
